Source: the supplement of paper PMC9931576
Human monoclonal antibodies against the spike receptor-binding domain (heavy:light variable regions). IC50 against pseudoviruses bearing the spike of naturally observed variants; lower = stronger; >10 µg/ml means not reached at the top dose. No active / inactive call. The stated detection limit is 0.0005 µg/ml; values near or below 0.001 µg/ml lie at the floor of the assay.

B1: BD56-1259 (protein)
chain 1: QVQLQESGPGLVKPSQTLSLTCTVSGGSIRNEVYYWSWIRQPPGKGLEWIGYIHYSGNTYYNPSLKSRVAISVDTSKNQFSLKLNSVTAADTAVYYCARVDVGGRLVSTFDYWGQGTLVTVSS
chain 2: NFMLTQPHSVSESPGMTVTISCTGSSGSIADNYVQWYQQRPGSAPTTVIYENNQRPSGVPDRFSGSIDSSSNSASLTISGLKTEDEADYYCQSYDNSNIAVFGGGTQLTVL
B2: BD56-1266 (protein)
chain 1: QVQLVQSGADVKKPGSSVKVSCKASGGTFSSYSIVWVRQAPGQGLEWMGRIIPILDVANYAQMFQGRVTITADRSTNTAYLEVSSLRSEDTAVYYCARETGTTGAPWFIPWGQGTLVIVSS
chain 2: QSVLTQPPSVSGAPGQRVTISCTGSDSNIGAGYDVHWYQKLPGTAPKLLIYGNNNRPSGVPDRFTGSKSDTSVSLAITGLQAEDEADYYCQSYDSGLIGVIFGGGTKLTVL
B3: BD56-1269 (protein)
chain 1: EVQLVESGGGLVKPGGSLRLSCAASGFPFSTYGMNWVRQAPGKGLEWVSSITGGSSYISYADSVKGRFTISRDNAKNSLYLHMKSLRGDDTAVYYCARDKRAHDEYSSGWYDYYYYNGMDVWGQGTTVTVSS
chain 2: QSVLTQPPSVSAAPGQKVTISCSGSSSNIGSNYVSWYQQLPGMAPKLLIYDDNKRPSVIPDRISGSKSGTSATLAITGLQTGDEADYYCGAWDSSLTAWVFGGGTKLTVL
B4: BD56-1273 (protein)
chain 1: QVQLVESGGGVVQPGRSLRLSCAASGFTFSDYAVHWVRQAPGKGLEWVAVISYDGISQYYADSVKGRFTISRDNSKNTLFLQMNSLSAEDTAVYYCARDPIITMVRGIIRTNWFDPWGQGTLVTVSS
chain 2: SYELTQPPSVSVSPGQTASITCSGDRLGNKYVSWYQQKAGQSPVLVIYQNYRRPSGIPERFSGSNSGNTATLTISGTQALDEADYYCQAWRSANHVVFGGGTKLTVL
B5: BD56-1274 (protein)
chain 1: EVQLVESGGGLVQPGRSLTLSCAASGFTFDDYAMHWVRQAPGKGLEWVSGISWNSGTIGYADSVQGRFIISRDNAKNSLFLHMRSLRAEDTALYYCAKDIRGIMIDDTIYGMDVWGQGTTVTVSS
chain 2: QSALTQPASVSGSPGQSITISCTGTSSDVGNYNYVSWYQQHPGKAPKLMIYDVNKRPSGISNRFSGSKSGNTASLTISGLQAEDEADYYCSSYTSTSIVIFGGGTKLTVL
B6: BD56-1276 (protein)
chain 1: QVQLVESGGGVVQPGRSLRLSCAASGFTFKTYAMHWVRQGSGKGLEWVAVISDDGSNKYYADSVKGRFSISRDNSKNTLYLQMNSLRTEDTAVYFCARDRDDSSGWFLDYWGQGTLVTASS
chain 2: DIQMTQSPSALSASVGDRVSITCRASQGISNSLAWYQQKPGKAPKLLLYAAYRLESGVPSRFRGSGSGTDYTLTISSLQPEDFATYYCQQYYSMPPITFGQGTRLEIK
B7: COV2-2504 (protein)
chain 1: QVQLVQSGAEVKKPGASVKVSCKASGYTFTDYYMHWVRQAPGQGLEWMGWINPNSRGTNYAQKFQGRVTMTRDTSISTVYMELSRLTSDDTAVYYCARVVVLGYGRPNNYYDGRNVWDYWGQGTLVTVSS
chain 2: not shown

molecular target: SARS-CoV-2 Omicron BA.1 spike pseudovirus; assay: pseudovirus neutralization IC50; higher = weaker neutralization
Protocol: (§1)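 Single-round VSV luciferase pseudovirus mixed with antibody dilutions for 1 h and put on Huh-7 cells for about a day; IC50 from the dose curve.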

B1 and B2 are within 1.5-fold of each other in “pseudovirus neutralization IC50” value: 0.106 µg/mL for the first, 0.0762 µg/mL for the second.

First: B3
Second: B4
The “pseudovirus neutralization IC50” value of the first is lower: 0.108 µg/mL for the first, greater than 10 µg/mL for the second.

First: B5
Second: B6
The “pseudovirus neutralization IC50” value of the first is lower: 0.255 µg/mL for the first, greater than 10 µg/mL for the second.

B7 was tested, and the “pseudovirus neutralization IC50” value was greater than 10 µg/mL.

molecular target: SARS-CoV-2 Omicron BA.2 spike pseudovirus; assay: as above
Protocol: as §1

First: B1
Second: B2
The “pseudovirus neutralization IC50” value of the first is 5.6-fold lower: 0.0096 µg/mL for the first, 0.0534 µg/mL for the second.

Compared with B3, B4 is 19-fold higher in “pseudovirus neutralization IC50” value: 0.0887 µg/mL for the first, 1.66 µg/mL for the second.

Compared with B5, B6 is higher in “pseudovirus neutralization IC50” value: 0.0907 µg/mL for the first, greater than 10 µg/mL for the second.

B7 was tested, and the “pseudovirus neutralization IC50” value was greater than 10 µg/mL.

molecular target: SARS-CoV-2 Omicron BA.2.75 spike pseudovirus; assay: as above
Protocol: as §1

Compared with B1, B2 is 9.8-fold higher in “pseudovirus neutralization IC50” value: 0.00512 µg/mL for the first, 0.0503 µg/mL for the second.

First: B3
Second: B4
The “pseudovirus neutralization IC50” value of the first is 2.5-fold lower: 0.114 µg/mL for the first, 0.286 µg/mL for the second.

Compared with B5, B6 is higher in “pseudovirus neutralization IC50” value: 0.157 µg/mL for the first, greater than 10 µg/mL for the second.

B7 was tested, and the “pseudovirus neutralization IC50” value was greater than 10 µg/mL.

molecular target: SARS-CoV-2 Omicron BA.5 spike pseudovirus; assay: as above
Protocol: as §1

Going from B1 to B2, the “pseudovirus neutralization IC50” value rises from 0.00705 µg/mL to greater than 10 µg/mL.

Compared with B3, B4 is higher in “pseudovirus neutralization IC50” value: 0.091 µg/mL for the first, greater than 10 µg/mL for the second.

B5 and B6 cannot be ordered by “pseudovirus neutralization IC50” value: greater than 10 µg/mL for the first, greater than 10 µg/mL for the second.

With B7 the “pseudovirus neutralization IC50” value was greater than 10 µg/mL.

molecular target: SARS-CoV-2 Omicron BQ.1.1 spike pseudovirus; assay: as above
Protocol: as §1

Compared with B1, B2 is higher in “pseudovirus neutralization IC50” value: 0.00507 µg/mL for the first, greater than 10 µg/mL for the second.

B4 and B5 cannot be ordered by “pseudovirus neutralization IC50” value: greater than 10 µg/mL for the first, greater than 10 µg/mL for the second.

B6 and B7 cannot be ordered by “pseudovirus neutralization IC50” value: greater than 10 µg/mL for the first, greater than 10 µg/mL for the second.

molecular target: SARS-CoV-2 Omicron XBB spike pseudovirus; assay: as above
Protocol: as §1

Going from B1 to B2, the “pseudovirus neutralization IC50” value rises from 0.00673 µg/mL to 1.01 µg/mL (150-fold).

Compared with B4, B5 is lower in “pseudovirus neutralization IC50” value: greater than 10 µg/mL for the first, 1.65 µg/mL for the second.

B6 and B7 cannot be ordered by “pseudovirus neutralization IC50” value: greater than 10 µg/mL for the first, greater than 10 µg/mL for the second.

molecular target: SARS-CoV-2 early D614G spike pseudovirus; assay: as above
Protocol: as §1

Going from B1 to B2, the “pseudovirus neutralization IC50” value rises from 0.0156 µg/mL to 0.0574 µg/mL (3.7-fold).

Going from B3 to B4, the “pseudovirus neutralization IC50” value falls from 0.0281 µg/mL to 0.00224 µg/mL (13-fold).

First: B5
Second: B6
The “pseudovirus neutralization IC50” value of the first is lower: 0.0174 µg/mL for the first, greater than 10 µg/mL for the second.
